System: Aβ42
Assay: Sandwich Aβ42 assay (MSD ECL) measuring Aβ42 in human CSF with full length or modified reference standard
Conditions: peptide used as reference standard

In the case of “DAEFRHDSGYEVHMVGGVVIA (Modified Peptide) [Modified Aβ xx-42 peptide, native Aβ42 amino acids (1-14)(35-42) with no spacer in between]”, the “Aβ42 Concentration” value (CSF-1, 1:2 dil) is reported as “Below limit of detection”, the “Aβ42 Concentration” value (CSF-1, 1:4 dil) is reported as “Below limit of detection” and the “Aβ42 Concentration” value (CSF-2, 1:2 dil) is reported as 27.8 pg/mL. For the same sequence, the “Aβ42 Concentration” value (CSF-2, 1:4 dil) was 56.8 pg/mL, the “Aβ42 Concentration” value (CSF-3, 1:2 dil) was 80.4 pg/mL and the “Aβ42 Concentration” value (CSF-3, 1:4 dil) was 126.4 pg/mL.

Source: patent US10670612B2 (Saladax Biomedical, Inc., priority 2010, dated 2020)
